From patent publication US8946273B2, “S-Triazolyl alpha-mercapto acetanilides as inhibitors of HIV reverse transcriptase” (priority 2011, dated 2015) come the findings set out here.

Assay [1] has as its target mutant HIV reverse transcriptases (Human immunodeficiency virus type 1, UniProt P12497, Y768C, cells depend on it). The assay is described as follows: Table 1 IC50 against mutant HIV reverse transcriptases. The settings on record: read-out: IC50 Y181C; Y181C mutant RT. The assay is classed as biochemical. Here is the method:
(§1) Compounds of the invention were tested against the wild-type and four mutant HIV reverse transcriptases. The results are listed in Table 1 as EC50 (nM) and IC50 (nM). In the Table, A represents <50 nM, B is between 50 and 100 nM, and C is >100 nM. ND is not determined.

Assay [2] deals with mutant HIV reverse transcriptases (Human immunodeficiency virus type 1, UniProt P12497, Y775L, cells depend on it). The description is as above. The assay is classed as biochemical. The settings on record: read-out: IC50 Y188L; Y188L mutant RT. Here is the method: as §1

The structures appear in SMILES notation.

For `O=C(CSc1nnc(Br)n1-c1ccc(C2CC2)cc1OC(F)(F)F)Nc1ccc(S(=O)(=O)O)cc1Cl` [compound 24], the IC50 in assay [1] is 50 to 100 nM; in assay [2] it was greater than 100 nM.
Regarding `Cc1cc(C2CC2)cc(C)c1-n1c(Br)nnc1SCC(=O)Nc1ccc(C(=O)O)cc1Cl` [compound 33], the IC50 in assay [1] was less than 50 nM; in assay [2], greater than 100 nM.
In the same order, the values of `Cc1cc(S(N)(=O)=O)ccc1NC(=O)CSc1nnc(Br)n1-c1ccc2c3c(cccc13)CC2` [compound 38] are less than 50 nM and greater than 100 nM.
In the same order, the values of `Cc1ccc2c(C)cc(C)c(-n3c(SCC(=O)Nc4ccc(S(N)(=O)=O)cc4C)nnc3C(F)F)c2n1` [compound 64] are greater than 100 nM and greater than 100 nM.
In the case of `COc1ccc2cccc(-n3c(Br)nnc3SCC(=O)Nc3ccc(C(=O)O)cc3Cl)c2c1` [compound 13], the concentration for half-maximal inhibition (IC50) is less than 50 nM in assay [1] and greater than 100 nM in assay [2].
On the same counts, the results for `CCc1ccc(-n2c(C)nnc2SCC(=O)Nc2ccc(S(N)(=O)=O)cc2Cl)c2c1CCCC2` [compound 43] are 50 to 100 nM and greater than 100 nM.
In the same order, the values of `Cc1cc(S(N)(=O)=O)ccc1NC(=O)CSc1nnc(CF)n1-c1ccc(C)c2c1CCCC2` [compound 65] are greater than 100 nM and greater than 100 nM.
On the same counts, the results for `CCc1ccc(-n2c(Br)nnc2SCC(=O)Nc2ccc(S(=O)(=O)O)cc2Br)c2ccccc12` [compound 20] are less than 50 nM and 50 to 100 nM.
With `Cc1ccc(-n2c(C)nnc2SCC(=O)Nc2ccc(S(N)(=O)=O)cc2Cl)c2c1CCCC2` [compound 46], the IC50 is 50 to 100 nM in assay [1] and greater than 100 nM in assay [2].
In the same order, the values of `Cc1ccc(-n2c(SCC(=O)Nc3ccc(S(=O)(=O)NCCN4CCOCC4)cc3Cl)nnc2C(F)F)c2c1CCCC2` [compound 57] are 50 to 100 nM and greater than 100 nM.
Turning to `Cc1ccc(-n2c(SCC(=O)Nc3ccc(S(=O)(=O)NCCC(=O)O)cc3Cl)nnc2C(F)F)c2c1CCCC2` [compound 58], the IC50 in assay [1] and in assay [2] was greater than 100 nM in each case.
Turning to `CCc1ccc(-n2c(Br)nnc2SCC(=O)Nc2ccc(C(=O)O)cc2Br)c2ccccc12` [compound 22], the IC50 in assay [1] is less than 50 nM; in assay [2], 50 to 100 nM.
On the same counts, the results for `O=C(CSc1nnc(Br)n1-c1c(Cl)cc(C2CCC2)c2ccccc12)Nc1ccc(C(=O)O)cc1Cl` [compound 25] are less than 50 nM and 50 to 100 nM.
In the same order, the values of `COc1cccc2c(-n3c(Br)nnc3SCC(=O)Nc3ccc(C(=O)O)cc3Cl)cccc12` [compound 27] are 50 to 100 nM and greater than 100 nM.
On the same counts, the results for `Cc1cc(C2CC2)c2ccccc2c1-n1c(Br)nnc1SCC(=O)Nc1ccc(S(N)(=O)=O)cc1Cl` [compound 50] are less than 50 nM and 50 to 100 nM.
For the compound `Cc1cc(C2CC2)c2ccccc2c1-n1c(Br)nnc1SCC(=O)Nc1ccc(S(=O)(=O)O)cc1Cl` [compound 15], the IC50 in assay [1] is less than 50 nM; in assay [2], 50 to 100 nM.
Consider `Cc1cc(C2CC2)c2ccccc2c1-n1c(Br)nnc1SCC(=O)Nc1ccc(C(=O)O)cc1Cl` [compound 23], for which the IC50 in assay [1] is less than 50 nM; in assay [2], greater than 100 nM.
In the same order, the values of `COc1ccc2c(C)ccc(-n3c(Br)nnc3SCC(=O)Nc3ccc(C(=O)O)cc3Cl)c2c1` [compound 18] are less than 50 nM and less than 50 nM.
As to `Cc1ccc(-n2c(SCC(=O)Nc3ccc(S(=O)(=O)NC(C)C(=O)O)cc3Cl)nnc2C(F)F)c2c1CCCC2` (centres unmarked) [compound 59], the IC50 in assay [1] and in assay [2] was greater than 100 nM throughout.
As for `Cc1cc(S(N)(=O)=O)ccc1NC(=O)CSc1nnc(Br)n1-c1ccc(C2CC2)c2ccccc12` [compound 40], the values for the IC50 in assay [1] and in assay [2] were less than 50 nM and greater than 100 nM, respectively.
On the same counts, the results for `Cc1cc(S(N)(=O)=O)ccc1NC(=O)CSc1nnc(Br)n1-c1ccc(F)c2ccccc12` [compound 62] are greater than 100 nM and greater than 100 nM.
In the same order, the values of `CNS(=O)(=O)c1ccc(NC(=O)CSc2nnc(C(F)F)n2-c2ccc(C)c3c2CCCC3)c(Cl)c1` [compound 51] are less than 50 nM and greater than 100 nM.
In the same order, the values of `NS(=O)(=O)c1ccc(NC(=O)CSc2nnc(Br)n2-c2ccc3c4c(cccc24)CC3)c(Cl)c1` [compound 37] are less than 50 nM and 50 to 100 nM.
In the case of `O=C(CSc1nnc(Br)n1-c1cccc2c(OCC3CC3)cccc12)Nc1ccc(C(=O)O)cc1Cl` [compound 32], the IC50 in assay [1] and in assay [2] was greater than 100 nM each time.
Take `CCc1ccc(-n2c(SCC(=O)Nc3ccc(C(=O)O)cc3Cl)nnc2C(F)F)c2ccccc12` [compound 4]: the IC50 in assay [1] is less than 50 nM; in assay [2], greater than 100 nM.
On the same counts, the results for `Cc1cc(S(N)(=O)=O)ccc1NC(=O)CSc1nnc(C)n1-c1ccc(C)c2c1CCCC2` [compound 45] are greater than 100 nM and greater than 100 nM.
In the same order, the values of `Cc1cc(C2CC2)cc(Cl)c1-n1c(Br)nnc1SCC(=O)Nc1ccc(C(=O)O)cc1Cl` [compound 28] are less than 50 nM and greater than 100 nM.
In the same order, the values of `CCc1ccc(-n2c(C)nnc2SCC(=O)Nc2ccc(S(N)(=O)=O)cc2C)c2c1CCCC2` [compound 41] are greater than 100 nM and greater than 100 nM.
With `O=C(CSc1nnc(Br)n1-c1ccc(C2CC2)cc1Cl)Nc1ccc(C(=O)O)cc1Cl` [compound 31], the results for the IC50 in assay [1] and in assay [2] were less than 50 nM and greater than 100 nM, respectively.
In the same order, the values of `Cc1ccc(-n2c(SCC(=O)Nc3ccc(C(=O)O)cc3Cl)nnc2C(F)F)c2c1CCCC2` [compound 2] are less than 50 nM and greater than 100 nM.
As to `NS(=O)(=O)c1ccc(NC(=O)CSc2nnc(C(F)F)n2-c2ccc(C3CC3)c3ccccc23)c(Cl)c1` [compound 44], the results for the IC50 in assay [1] and in assay [2] were less than 50 nM and greater than 100 nM, respectively.
On the same counts, the results for `NS(=O)(=O)c1ccc(NC(=O)CSc2nncn2-c2ccc(C3CC3)c3ccccc23)c(Cl)c1` [compound 66] are 50 to 100 nM and greater than 100 nM.
In the same order, the values of `CCc1ccc(-n2c(SCC(=O)Nc3ccc(S(N)(=O)=O)cc3Cl)nnc2C(F)F)c2c1CCCC2` [compound 47] are less than 50 nM and greater than 100 nM.
On the same counts, the results for `CCc1cc(C2CC2)ccc1-n1c(Br)nnc1SCC(=O)Nc1ccc(C(=O)O)cc1Cl` [compound 29] are 50 to 100 nM and greater than 100 nM.
For the compound `O=C(CSc1nnc(Br)n1-c1ccc(C2CC2)cc1Cl)Nc1ccc(S(=O)(=O)O)cc1Cl` [compound 21], the half-inhibitory concentration (IC50) is less than 50 nM in assay [1] and greater than 100 nM in assay [2].
In the same order, the values of `Cc1cc(C)c2ccccc2c1-n1c(CF)nnc1SCC(=O)Nc1ccc(S(N)(=O)=O)cc1Cl` [compound 53] are less than 50 nM and greater than 100 nM.
On the same counts, the results for `O=C(CSc1nnc(Br)n1-c1ccc(C2CCC2)c2ccccc12)Nc1ccc(C(=O)O)cc1Cl` [compound 26] are less than 50 nM and greater than 100 nM.
On the same counts, the results for `CCc1ccc(-n2c(CF)nnc2SCC(=O)Nc2ccc(C(=O)O)cc2Cl)c2ccccc12` [compound 17] are less than 50 nM and greater than 100 nM.
In the case of `Cc1cc(C(=O)O)ccc1NC(=O)CSc1nnc(C(F)F)n1-c1ccc(C)c2c1CCCC2` [compound 5], the IC50 in assay [1] and in assay [2] was greater than 100 nM throughout.
As to `CCc1ccc(-n2c(SCC(=O)Nc3ccc(C(=O)O)cc3Cl)nnc2C(F)(F)F)c2ccccc12` [compound 16], the IC50 is less than 50 nM in assay [1] and greater than 100 nM in assay [2].
Turning to `CNS(=O)(=O)c1ccc(NC(=O)CSc2nnc(C(F)F)n2-c2ccc(C)c3ccccc23)c(Cl)c1` [compound 54], the IC50 in assay [1] was less than 50 nM; in assay [2] it was greater than 100 nM.
On the same counts, the results for `CCc1ccc(-n2c(CF)nnc2SCC(=O)Nc2ccc(S(=O)(=O)NC)cc2Cl)c2ccccc12` [compound 55] are less than 50 nM and greater than 100 nM.
In the same order, the values of `Cc1ccc2c(C)cc(C)c(-n3c(SCC(=O)Nc4ccc(S(N)(=O)=O)cc4Cl)nnc3C(F)F)c2n1` [compound 63] are 50 to 100 nM and greater than 100 nM.
For the compound `O=C(CSc1nnc(C(F)F)n1-c1ccc(C2CC2)c2ccccc12)Nc1ccc(C(=O)O)cc1Cl` [compound 14], the IC50 in assay [1] is less than 50 nM; in assay [2] it was greater than 100 nM.
In the same order, the values of `CCc1ccc(-n2c(Br)nnc2SCC(=O)Nc2ccc(C(=O)O)cc2C)c2ccccc12` [compound 6] are 50 to 100 nM and greater than 100 nM.
On the same counts, the results for `CCc1ccc(-n2c(CF)nnc2SCC(=O)Nc2ccc(S(N)(=O)=O)cc2C)c2ccccc12` [compound 49] are 50 to 100 nM and greater than 100 nM.
On the same counts, the results for `CCc1ccc(-n2c(Br)nnc2SCC(=O)Nc2ccc(C(=O)O)cc2Cl)c2ccccc12` [compound 8] are less than 50 nM and greater than 100 nM.
Regarding `O=C(CSc1nnc(Br)n1-c1ccc(C2CC2)cc1C(F)(F)F)Nc1ccc(C(=O)O)cc1Cl` [compound 30], the IC50 was 50 to 100 nM in assay [1] and greater than 100 nM in assay [2].
In the same order, the values of `CCOC(=O)C(C)NS(=O)(=O)c1ccc(NC(=O)CSc2nnc(C(F)F)n2-c2ccc(C)c3c2CCCC3)c(Cl)c1` (centres unmarked) [compound 56] are greater than 100 nM and greater than 100 nM.
In the same order, the values of `Cc1cc(S(N)(=O)=O)ccc1NC(=O)CSc1nnc(C(F)F)n1-c1ccc(C)c2c1CCCC2` [compound 48] are less than 50 nM and greater than 100 nM.
Turning to `NS(=O)(=O)c1ccc(NC(=O)CSc2nnc(C(F)F)n2-c2ccc3c4c(cccc24)CC3)c(Cl)c1` [compound 36], the values for the half-maximal inhibitory concentration (IC50) in assay [1] and in assay [2] were less than 50 nM and greater than 100 nM, respectively.
On the same counts, the results for `Cc1cc(S(N)(=O)=O)ccc1NC(=O)CSc1nnc(CF)n1-c1c(C)cc(C)c2ccccc12` [compound 52] are greater than 100 nM and greater than 100 nM.

Broadly, the IC50 is the concentration that inhibits the measured activity by half.
